Test results reported in ChEMBL document CHEMBL1147716, “A series of 5-aminosubstituted 4-fluorobenzyl-8-hydroxy-[1,6]naphthyridine-7-carboxamide HIV-1 integrase inhibitors” (Bioorg Med Chem Lett, 2006).

Species: Homo sapiens
Experiment: Protein binding in human plasma at pH 7.4
Conditions: read-out: PPB (converted)

SMILES	fraction unbound
CN(C)C(=O)CN(C)c1nc(C(=O)NCc2ccc(F)cc2)c(O)c2ncccc12	0.167
CN(C)C(=O)C(=O)N(C)c1nc(C(=O)NCc2ccc(F)cc2)c(O)c2ncccc12	0.068
